From patent US20060134092 come the findings set out here.

The data set has as its target sheep prion protein (UniProt P23907).

As to “enzyme composition B for comparison (containing keratinase derived from Bacillus licheniformis PWD-1)”, the “digestion of pathogenic prion protein in 1% brain homogenate, Western blot” value is given as “the pathogenic prion protein was not digested at any concentration”.
